Measured values from several laboratories, pooled; numbers as filed in NIAID ChemDB.

All rows: growth or infection tests; species: Herpes simplex virus 1; method: cytopathic effect; endpoint: EC50

Blank or dashed fields: not listed here. ECn: concentration that inhibits the pathogen or its effect by n%. Neighbouring rows are from separate reports.

SMILES | cell line | strain | value
O=c1[nH]c(=O)n([C@@H]2O[C@H](CO)[C@@H](O)[C@@H]2F)cc1I | PRK | KOS | <0.02 µg/mL
Nc1ncnc2c1ncn2C[C@@H](CO)OCP(=O)(O)O | ESM | McIntyre | 2 µg/mL
Cc1cn(CCCC(O)CF)c(=O)[nH]c1=O | ESM | B2006 (TK-) | >400 µg/mL
NC(=S)c1cncc([C@@H]2O[C@H](CO)[C@@H](O)[C@@H]2O)c1 | E6SM | KOS | ≥100 µg/mL
NC(=O)CSc1ncnc2c1cnn2COCCO | E6SM | B2006 (TK-) | >400 µg/mL
COc1cc(F)c([C@H]2C[C@H](O)[C@@H](CO)O2)cc1[N+](=O)[O-] | E6SM | KOS | >400 µg/mL
CCCCCCCc1nc2c(N)ncnc2n1[C@H]1C[C@H](O)[C@@H](CO)O1 | ESM | G | >40 µg/mL
Nc1nc(NCC2CC2)c2ncn(/C=C3/C[C@@H]3CO)c2n1 | HFF | - | >349 µM
N#Cc1cncc([C@H]2O[C@H](CO)[C@@H](O)[C@@H]2O)c1 | E6SM | KOS | ≥100 µg/mL
Nc1ccn(C(CF)CCCO)c(=O)n1 | ESM | KOS | >400 µg/mL
COC(=O)[C@H](C)NP(=O)(OC[C@H]1O[C@@H](n2cc(/C=C/Br)c(=O)[nH]c2=O)C[C@@H]1O)Oc1ccc(Cl)cc1 | E6SM | KOS | 0.015 µM
O=c1[nH]c(=O)n([C@H]2C[C@H](O)[C@@H](CO)O2)cc1/C=C/Br | BHK-21 | S3 | 0.005 µg/mL
C#CCNc1nc(N)nc2c1ncn2/C=C1/C[C@@H]1CO | HFF | - | >370 µM
Cc1cc([C@@H]2C[C@H](O)[C@@H](CO)O2)c(F)cc1F | E6SM | F | >400 µg/mL
Nc1ncnc2c1ncn2[C@H]1OC[C@@H](CO)C1O | E6SM | KOS | >80 µg/mL
Nc1nc2c(ncn2COC(CO)CO)c(=O)[nH]1 | - | KOS | 0.008 µg/mL
O=c1[nH]c(=O)n([C@H]2C[C@H](O)[C@@H](CO)O2)cc1/C=C/Br | HSF | KOS | 0.01 µg/mL
Nc1nc(OCC2CC2)c2ncn(/C=C3/C[C@@H]3CO)c2n1 | HFF | - | 6.3 µM
OC[C@H]1O[C@H](c2ccc(F)cc2F)C[C@@H]1O | E6SM | VMW 1837 | >400 µg/mL
NC(=O)c1cncc([C@H]2O[C@H](CO)[C@@H](O)[C@@H]2O)c1 | E6SM | KOS | ≥100 µg/mL
O=c1[nH]c(=O)n([C@H]2C[C@H](O)[C@@H](CO)O2)cc1/C=C\Br | BHK-21 | S3 | 0.1 µg/mL
O=c1[nH]c(=O)n([C@H]2C[C@H](O)[C@@H](CO)O2)cc1I | HSF | KOS | 0.4 µg/mL
Cc1cn([C@@H]2O[C@H](CO)[C@@H](O)[C@@H]2O)c(=O)[nH]c1=O | HELF | CHR-3 | 0.66 µg/mL
CCc1nc2c(N)ncnc2n1[C@H]1C[C@H](O)[C@@H](CO)O1 | ESM | B2006 (TK-) | 300 µg/mL
CCC(Sc1ncnc2c1cnn2COCC(O)CO)C(N)=O | E6SM | B2006 (TK-) | >400 µg/mL
CC(=O)c1c(O)c2c(c(C(=O)CC(C)C)c1O)OC(C(C)(C)O)C2 | VERO | - | 22.3 µM
CC[C@@]1(Cl)C(=O)NC(=O)N([C@H]2C[C@H](O)[C@@H](CO)O2)[C@H]1OC | HFF | E-377 | >50 µM
CCCSc1nc(N)nc2c1ncn2/C=C1/C[C@@H]1CO | HFF | - | >343 µM
O=C(C1CCCCC1)N(O)c1ccc(Cl)cc1 | E6SM | KOS ACV-resistant TK- | >80 µg/mL
Nc1ccn([C@@H]2O[C@H](CO)[C@@H](O)[C@@H]2O)c(=O)n1 | PRK | KOS F McIntyre | 0.04 µg/mL
Nc1ncnc2c1ncn2[C@H]1C[C@@H](CO)[C@H](O)[C@@H]1O | PRK | - | ≥200 µg/mL
OC[C@H]1O[C@H](c2cncc(Br)c2)[C@@H](O)[C@H]1O | E6SM | KOS | ≥100 µg/mL
Nc1cc([C@H]2C[C@H](O)[C@@H](CO)O2)c(F)cc1F | E6SM | McIntyre | >400 µg/mL
Nc1ncnc2c1ncn2[C@H]1CO[C@H](CO)[C@@H](O)C1 | E6SM | TK-/B2006 | >20 µg/mL
N#Cc1cncc([C@@H]2O[C@H](CO)[C@@H](O)[C@@H]2O)c1 | E6SM | KOS | ≥100 µg/mL
O=c1[nH]c(=O)n([C@H]2C[C@H](O)[C@@H](CO)O2)cc1/C=C/Br | VERO | - | <0.001 µg/mL
CO[C@H]1[C@H](O)[C@H](n2cnc3c(N)ncnc32)O[C@@H]1CO | PRK | - | >100 µg/mL
C/C=C\c1nc2c(N)ncnc2n1[C@H]1C[C@H](O)[C@@H](CO)O1 | ESM | B2006 (TK-) | >100 µg/mL
Nc1ncnc2c1ncn2C1CC(COP(=O)(O)O)[C@@H](O)[C@H]1O | PRK | - | 7 µg/mL
CCCCCCCCCCCC(=O)NC(C)(C)C(=O)N1CCCC1C(=O)N[C@@H](CC(C)C)C(=O)N[C@H](C(=O)N[C@@H](CCC(N)=O)C(=O)N[C@H](CO)CC(C)C)C(C)C | VERO | - | 3.1 µM
COC(=O)C(C)(C)NP(=O)(OC[C@H]1O[C@@H](n2cc(/C=C/Br)c(=O)[nH]c2=O)C[C@@H]1O)Oc1ccccc1 | E6SM | KOS TK- acyclovir-resistant | >240 µM
O=c1[nH]c(=O)n([C@H]2C[C@H](O)[C@@H](CO)O2)cc1CCCl | HFF | E-377 | 0.29 µM
Nc1nc2c(ncn2COC(CO)CO)c(=O)[nH]1 | PRK | KOS | <0.2 µg/mL
NC(=O)c1cncc([C@@H]2O[C@H](CO)[C@@H](O)[C@@H]2O)c1 | E6SM | KOS | ≥100 µg/mL
Nc1ccn(CCCC(O)CF)c(=O)n1 | ESM | B2006 (TK-) | >400 µg/mL
Cc1cn([C@@H]2O[C@H](CO)[C@@H](O)[C@@H]2O)c(=O)[nH]c1=O | PRK | KOS F McIntyre | 0.5 µg/mL
CCCCCSc1nc(N)nc2c1ncn2/C=C1/C[C@@H]1CO | HFF | - | 49.2 µM
CC(Sc1ncnc2c1cnn2COCCO)C(N)=O | E6SM | B2006 (TK-) | >400 µg/mL
O=C(C1CC1)N(O)c1ccc(Cl)cc1 | E6SM | KOS ACV-resistant TK- | >80 µg/mL
Nc1nc2c(ncn2COCCO)c(=O)[nH]1 | HFF | H30716 (acyclovir-susceptible) | 0.5 µg/mL
CCC(Sc1ncnc2c1cnn2CCCCO)C(N)=O | E6SM | VWM1837 (TK-) | >400 µg/mL
Nc1nc2c(ncn2COCOCP(=O)(O)O)c(=O)[nH]1 | VERO | - | 2.6 µg/mL
OC[C@H]1O[C@@H](c2cncc(Br)c2)[C@@H](O)[C@H]1O | E6SM | KOS | ≥100 µg/mL
CCCCCCCCCCCCCC(=O)NC(C)(C)C(=O)N1C[C@@H](O)CC1C(=O)N[C@@H](CC(C)C)C(=O)N[C@H](C(=O)N[C@@H](CCC(N)=O)C(=O)N[C@H](CO)CC(C)C)C(C)C | VERO | - | 1.1 µM

For reference, 5 entries again:

{"SMILES": "Nc1ncnc2c1ncn2C1CC(COP(=O)(O)O)[C@@H](O)[C@H]1O", "cell line": "PRK", "value": "7 µg/mL"}
{"SMILES": "Nc1ncnc2c1ncn2[C@H]1OC[C@@H](CO)C1O", "cell line": "E6SM", "strain": "KOS", "value": ">80 µg/mL"}
{"SMILES": "O=c1[nH]c(=O)n([C@H]2C[C@H](O)[C@@H](CO)O2)cc1/C=C/Br", "cell line": "BHK-21", "strain": "S3", "value": "0.005 µg/mL"}
{"SMILES": "Nc1cc([C@H]2C[C@H](O)[C@@H](CO)O2)c(F)cc1F", "cell line": "E6SM", "strain": "McIntyre", "value": ">400 µg/mL"}
{"SMILES": "Nc1ccn(CCCC(O)CF)c(=O)n1", "cell line": "ESM", "strain": "B2006 (TK-)", "value": ">400 µg/mL"}